Values quoted from earlier work in article PMC6359284, “Identification, Characterization, and Optimization of Integrin αvβ6-Targeting Peptides from a One-Bead One-Compound (OBOC) Library: Towards the Development of Positron Emission Tomography (PET) Imaging Agents” (Molecules, 2019).

Conditions: matrix not stated, cited from earlier work

Q: Which “% intact” value does the source give for [^18F]FB-A20FMDV2 here?
A: 0%

Q: Which “% intact at 1 h” value (1 h) does the source give for [^18F]FB-A20FMDV2-PEG28 here?
A: 76%
